Article PMC9296231

Assays:
[1] = target: SARS2 S trimer Omicron BA.2 (SARS-CoV-2) (UniProt P0DTC2); experiment: ELISA; details: bispecific antibody
[2] = target: SARS2 S trimer Omicron BA.2 (SARS-CoV-2) (UniProt P0DTC2); experiment: BLI; details: bispecific antibody

F6-ab8-Fc (from UniProt P01857)
EC50 [1]: 0.0143 µM
Kd [2]: 0.0062 µM
